Data as given in paper PMC2965769 (PLoS Pathogens, 2010).

System: wt HPIV3
Conditions: for HPIV3 viral titer, Day 1 / HPIV3 viral titer, Day 2 / HPIV3 viral titer, Day 3 / HPIV3 viral titer, Day 5 / HPIV3 viral titer, Day 7: HAE apical surface, 1uM peptide at time of infection only, mean +/- SD; for reduction of HPIV3 viral titer in HAE, two days post-infection: single initial dose 1000 nM peptide at infection, 90 min adsorption, vs untreated control wells, 3 replicate samples

| Structure (SMILES) | HPIV3 viral titer, Day 1 | HPIV3 viral titer, Day 2 | HPIV3 viral titer, Day 3 | HPIV3 viral titer, Day 5 | HPIV3 viral titer, Day 7 | reduction of HPIV3 viral titer in HAE, two days post-infection |
| --- | --- | --- | --- | --- | --- | --- |
| CC[C@H](C)[C@H](NC(=O)[C@H](CO)NC(=O)[C@H](CC(=O)O)NC(=O)[C@H](CC(C)C)NC(=O)[C@H](CCCCN)NC(=O)[C@H](CCC(N)=O)NC(=O)[C@H](CC(N)=O)NC(=O)[C@H](CO)NC(=O)[C@H](CCCNC(=N)N)NC(=O)[C@H](CCCNC(=N)N)NC(=O)[C@@H](NC(=O)[C@H](Cc1c[nH]c2ccccc12)NC(=O)[C@H](CCC(=O)O)NC(=O)[C@H](CCCCN)NC(=O)[C@H](CO)NC(=O)[C@H](CCC(=O)O)NC(=O)[C@H](CCC(=O)O)NC(=O)[C@H](CC(C)C)NC(=O)[C@H](CC(=O)O)NC(=O)[C@H](CO)NC(=O)[C@H](CCCCN)NC(=O)[C@H](C)NC(=O)[C@H](CCCCN)NC(=O)[C@H](CC(N)=O)NC(=O)[C@H](CC(C)C)NC(=O)[C@@H](NC(=O)[C@@H](NC(=O)[C@H](CO)NC(=O)[C@@H](NC(=O)[C@H](CC(=O)O)NC(=O)[C@@H](NC(=O)[C@@H]1CCCN1C(=O)[C@H](CC(=O)O)NC(=O)[C@H](CC(C)C)NC(=O)[C@H](C)NC(=O)[C@@H](NC(C)=O)C(C)C)[C@@H](C)CC)[C@@H](C)CC)[C@@H](C)CC)C(C)C)[C@@H](C)CC)C(=O)NCC(=O)N[C@@H](CO)C(=O)NCC(=O)N[C@@H](CO)C(=O)NCC(=O)N[C@@H](CSCC(=O)NCCOCCOCCOCCOCCC(=O)O[C@H]1CC[C@@]2(C)C(=CC[C@H]3[C@@H]4CC[C@H]([C@H](C)CCCC(C)C)[C@@]4(C)CC[C@@H]32)C1)C(N)=O [V-PEG4-chol] | 0.3+/-0.2 pfu/ ml 103 | 3.8+/-1.6 pfu/ ml 103 | 10 +/-1.9 pfu/ ml 103 | 3.0+/-0.6 pfu/ ml 103 | 11 +/-1.9 pfu/ ml 103 | the same as for untreated control wells |
| CC[C@H](C)[C@H](NC(=O)[C@H](CO)NC(=O)[C@H](CC(=O)O)NC(=O)[C@H](CC(C)C)NC(=O)[C@H](CCCCN)NC(=O)[C@H](CCC(N)=O)NC(=O)[C@H](CC(N)=O)NC(=O)[C@H](CO)NC(=O)[C@H](CCCNC(=N)N)NC(=O)[C@H](CCCNC(=N)N)NC(=O)[C@@H](NC(=O)[C@H](Cc1c[nH]c2ccccc12)NC(=O)[C@H](CCC(=O)O)NC(=O)[C@H](CCCCN)NC(=O)[C@H](CO)NC(=O)[C@H](CCC(=O)O)NC(=O)[C@H](CCC(=O)O)NC(=O)[C@H](CC(C)C)NC(=O)[C@H](CC(=O)O)NC(=O)[C@H](CO)NC(=O)[C@H](CCCCN)NC(=O)[C@H](C)NC(=O)[C@H](CCCCN)NC(=O)[C@H](CC(N)=O)NC(=O)[C@H](CC(C)C)NC(=O)[C@@H](NC(=O)[C@@H](NC(=O)[C@H](CO)NC(=O)[C@@H](NC(=O)[C@H](CC(=O)O)NC(=O)[C@@H](NC(=O)[C@@H]1CCCN1C(=O)[C@H](CC(=O)O)NC(=O)[C@H](CC(C)C)NC(=O)[C@H](C)NC(=O)[C@@H](NC(C)=O)C(C)C)[C@@H](C)CC)[C@@H](C)CC)[C@@H](C)CC)C(C)C)[C@@H](C)CC)C(=O)NCC(=O)N[C@@H](CO)C(=O)NCC(=O)N[C@@H](CO)C(=O)NCC(=O)N[C@@H](CSCC(=O)O[C@H]1CC[C@@]2(C)C(=CC[C@H]3[C@@H]4CC[C@H]([C@H](C)CCCC(C)C)[C@@]4(C)CC[C@@H]32)C1)C(N)=O [V-chol] | 1.0+/-0.8 pfu/ ml 103 | 3.8+/-0.9 pfu/ ml 103 | 8.5+/-2.7 pfu/ ml 103 | 12 +/-3.0 pfu/ ml 103 | 2.7+/-0.8 pfu/ ml 103 | the same as for untreated control wells |
